Source: the supplement of paper PMC9931576
Human monoclonal antibodies against the spike receptor-binding domain (heavy:light variable regions). IC50 against pseudoviruses bearing the spike of naturally observed variants; lower = stronger; >10 µg/ml means not reached at the top dose. No active / inactive call. The stated detection limit is 0.0005 µg/ml; values near or below 0.001 µg/ml lie at the floor of the assay.

B1: BD56-560 (protein)
chain 1: EVQLVESGGGLVQPGRSLRLSCAASGFTFDDYAIHWVRQAPGKGLEWVSGSTWNSGTIDYADSVKGRFIISRDNAKNSLYLQMNRLRAEDTALYYCAKDIALVEGKAVGFDSWGQGTLVTVSS
chain 2: EIVLTQSPATLSLSPGERATLSCRASQSISSYLAWYQQKPGQAPRLLIYDASNRATGIPARFSGSGSGTDFTLTISSLEPEDFAVYYCQQRGNWPKAFGQGTKVEIK
B2: BD56-565 (protein)
chain 1: EVQLVESGGGLVQPGGSLRLSCAASGFAFRSYDMHWVRQDIGKGPEWVAAIGTAGDTYYPDSVKGRFTISRENAKNSLYLQMNSLRAGDTAVYFCVRDLEKNWYFDLWGRGTLVTVSS
chain 2: DIRMTQSPSSLSASVGDRVTITCRASQSISRFLNWYQQKPGKAPDLLIYGASTLRSGVPSRFSGSGSGTDFTLTISSLQPEDFATYYCQQSYSTPPISFGQGTRLEIK
B3: BD56-569 (protein)
chain 1: QVQLVESGGGVVQPGRSLRLSCAASGFSFSSYGMHWVRQAPGKGLEWVAVIGDDGSIKLYADSVKGRFTISRDNSKNTLYLQMNGLRPEDTAVYFCARDYGAVVTLFDYWGQGTLVTVSS
chain 2: DIQMTQSPSSLSASVGDRVTITCRASQSVSTYLNWYQQKQGKAPKLLIYDASSLQSGVPSRFSGSGSGTDFTLTISSLQPEDFATYYCQQSYSTPPWTFGQGTKVDIK
B4: BD56-580 (protein)
chain 1: QVQLVESGGGVVQPGRSLRLSCAASGFTFSSYGMHWVRQGPGKGLEWVAVIWNDGSGKHYADSVKGRFSISRDNSKNMVYLQMNSLRSEDTAVYFCARDYGDYTTLFDSWGQGTLVTV
chain 2: DIQMTQSPSSLSASVGDRVTITCRASQSIRRFLNWYQHKPGKAPKLLIYGASSLQSGVPSRFSGSASGTEFTLTINNLQPEDFATYYCQQSYETPPWTFGQGTKVEI
B5: BD56-583 (protein)
chain 1: EVQLVESGGGLVQPGGSLRLSCAASGFTFSNYDMHWVRQGPERGLEWVSLIGTAGDTYYPDSVKGRFTISRENAKNSLYLQMNDLRAGDTAVYYCARATYDSSGFYGFFDCWGQGTLVTVSS
chain 2: DIQMTQSPSSLSASVGDRVTITCRASQTIRSYLNWYQQRPGKAPKVLIYAASTLQSGVPSRFSGSGSGTDFTLTISSLQPEDFATYYCQQSYITTSFTFGPGTKVDIK
B6: BD56-589 (protein)
chain 1: QKKLVQSGPEVKKPGTSVKVSCKASGFTFSSSAVQWVRQARGQSLEWIGWIVAGGGNTDYAQKFQGRVTISRDMSTSTAYMELSSLRSEDTAVYYCAAPYCSGGNCYDGFDIWGQGTMVTVSS
chain 2: DIALTQSPGTLSLSPGERATLSCRASQSVRSNYLAWYQHKPGQPPRLLIYAASSRATGIPERFSGSGSGTDFTLTINRLEPEDFAVYHCQQYGSSPWTFGQGTKVEI
B7: BD56-593 (protein)
chain 1: QMQLVQSGPEVKKPGASVKLSCKASGFTFTTSSIQWVRQARGQRLEWIGWIVVGSDNADYAPKFQERVTLTRDVSTSTASLELSSLRSDDTAVYYCAAPHCNTTSCYDGFDLWGQGTMVSVSS
chain 2: EIVLTQSPDTLSLSPGQRATLSCRASQTVRSAYFAWYQQKPGQAPRLLMFDTSSRATGIPDRFSGSGSGTDFILTISRLEPEDFAVYYCQQYGRSPWTFGQGTKVEIK

What was measured:
Assay in all cases: pseudovirus neutralization IC50; higher = weaker neutralization
[1] = biological target: SARS-CoV-2 Omicron BA.1 spike pseudovirus
Protocol: (§1)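 Single-round VSV luciferase pseudovirus mixed with antibody dilutions for 1 h and put on Huh-7 cells for about a day; IC50 from the dose curve.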

[2] = biological target: SARS-CoV-2 Omicron BA.2 spike pseudovirus
Protocol: as §1

[3] = biological target: SARS-CoV-2 Omicron BA.2.75 spike pseudovirus
Protocol: as §1

[4] = biological target: SARS-CoV-2 Omicron BA.5 spike pseudovirus
Protocol: as §1

[5] = biological target: SARS-CoV-2 Omicron BQ.1.1 spike pseudovirus
Protocol: as §1

[6] = biological target: SARS-CoV-2 Omicron XBB spike pseudovirus
Protocol: as §1

[7] = biological target: SARS-CoV-2 early D614G spike pseudovirus
Protocol: as §1

Row | Binder | pseudovirus neutralization IC50 [1] [µg/mL] | pseudovirus neutralization IC50 [2] [µg/mL] | pseudovirus neutralization IC50 [3] [µg/mL] | pseudovirus neutralization IC50 [4] [µg/mL] | pseudovirus neutralization IC50 [5] [µg/mL] | pseudovirus neutralization IC50 [6] [µg/mL] | pseudovirus neutralization IC50 [7] [µg/mL]
1 | B1 | 0.542 | 0.741 | 0.871 | > 10 | > 10 | > 10 | 0.0313
2 | B2 | > 10 | > 10 | > 10 | > 10 | > 10 | > 10 | > 10
3 | B3 | 3.08 | 4.75 | 5.66 | 3.98 | 5.12 | 2.7 | 1.21
4 | B4 | 1.52 | 2.7 | 4.27 | 3.1 | 3.37 | 3.07 | > 10
5 | B5 | 4.84 | 5.08 | 4.79 | 5.11 | 6.06 | 4.91 | 2.77
6 | B6 | 0.001 | 0.00049 | 0.0106 | > 10 | > 10 | > 10 | 0.0365
7 | B7 | 0.001 | 0.00073 | 0.00216 | 1.52 | > 10 | > 10 | 0.00233
